Measured values taken from paper PMC12568301 (Veterinary Sciences, 2025).

Test system: BHK-21 cells

Substance: Gomisin A
- Toxicity to BHK-21 cells in words: moderate cytotoxicity
- CC50 (hamster): 44 ± 1.64 µM
- Cytotoxicity CC10 (maximum non-toxic concentration) (hamster): 25.39 ± 1.40 µM
